The subject of this data set is decorin. The data set is described as follows: ChaseABC release from peptide hydrogels, bioactivity on decorin (FIGS. 6B, 15). Particulars: 5-day period. The text has this: The protein was not degraded.
In addition to release and retention rates, in analogous experiments the released and retained ChaseABC enzyme will also be assayed for bioactivity. Activity will be assessed through the efficacy of the sample to digest the small proteoglycan decorin as described previously.
Importantly, the protein was not degraded.

As for chondroitinase ABC [ChaseABC], the “degradation of the released protein” value is “not degraded”. Besides, the “release from peptide hydrogels” value (two different types of peptide hydrogels) is reported as “released differentially”.

Source of the values: patent US20250134946A1 (GEL4MED, INC., priority 2021, published 2025).
